The subject of experiment [1] is recombinant HIV-1 54V/71V/82S. Nature of the experiment: Cross-Resistance Profile Assay, 54V/71V/82S. Particulars: mutant 54V/71V/82S.
Experiment [2] relates to recombinant HIV-1 30N/50S/82I/88D. As to conditions: mutant 30N/50S/82I/88D.
Experiment [3] concerns recombinant HIV-1 8K/46I/90M. Nature of the experiment: Cross-Resistance Profile Assay, 8K/46I/90M. It counts as cell-based. As to conditions: mutant 8K/46I/90M.
In experiment [4] the test system is recombinant HIV-1 46I/47V/50V. Type of experiment: cell-based. Particulars: mutant 46I/47V/50V.
Experiment [5] has as its system recombinant HIV-1 48V/54V/71V/82S. It counts as cell-based. As to conditions: mutant 48V/54V/71V/82S.
Experiment [6] has as its system recombinant HIV-1 10I/48V/54V/82A. As to conditions: mutant 10I/48V/54V/82A.
Experiment [7] relates to recombinant HIV-1 10R/46I/82T/84V. Nature of the experiment: Cross-Resistance Profile Assay, 10R/46I/82T/84V. As to conditions: mutant 10R/46I/82T/84V.
Experiment [8] deals with recombinant HIV-1 10F/46I/71V/82T/90M. Description: Cross-Resistance Profile Assay, 10F/46I/71V/82T/90M. It counts as cell-based. Particulars: mutant 10F/46I/71V/82T/90M.
The test system of experiment [9] is recombinant HIV-1 46I/84A. Description: Cross-Resistance Profile Assay, 46I/84A. Particulars: mutant 46I/84A.

Turning to `CCOC(=O)C(C)NP(=O)(COc1ccc(CC(NC(=O)OC2COC3OCCC23)C(O)CN(CC(C)C)S(=O)(=O)c2ccc(OC)cc2)cc1)Oc1ccccc1` (stereo not drawn) [GS-16571], the “Fold Change in EC50 Relative to WT HIV-1” value in [1] is reported as 0.6; in [2] it was 0.7; in [3] it was 1.8; in experiment [4], 0.8; in experiment [5], 0.2; in [6], 0.3. The figures for the “Fold Change in EC50 Relative to WT HIV-1” value in [7], in [8] and in experiment [9] were 0.6, 0.8 and 1, respectively.

Values taken from US20070010489A1 (priority 2002, published 2007).
